The exact form of at least one protein or probe is not confirmed.
Legend:
[1] = system: IE86 (IE2) C-terminal fragment (Human cytomegalovirus); assay: binding assay; details: FPLC; concatemer enhances IE86 sequestration relative to 1x; purified recombinant protein
[2] = system: IE86 (IE2) C-terminal fragment (Human cytomegalovirus); assay: EMSA; details: 0-20 uM protein, 30 min room temperature; competed by 20-fold unlabeled crs used as specificity test; purified recombinant protein; label: DIG (EMSA)

| Sequence | binding result [1] | binding result [2] |
| --- | --- | --- |
| CGTTTAGTGAACCGCGCGCGCGTTTAGTGAACCG (double strand) [C-DOTC (2x) concat] | binds | – |
| TAATACGACTCACTATAGGGCGAATTGGAGCTCGTTTAGTGAACCGTCAGATCTCTAGAAGCTT (double strand) [crs EMSA probe / 64 bp crs DNA] | – | binds |
